{
  "source": "paper PMC6346101",
  "about": "“The structure of the nucleoprotein of Influenza D shows that all Orthomyxoviridae nucleoproteins have a similar NP_(CORE), with or without a NP_(TAIL) for nuclear transport” (Scientific Reports, 2019)",
  "binders": {"B1": {"name": "His-tagged D/NP_(TAIL) (505-D/NP-552) (domain or fragment)", "chain": "GSDVPRTGAKRRVGGADDVTLGTSQPKKRGRQGAGVESSMDIETVGED"}},
  "molecular_target": "T1, human importin-α7 without its IBB domain (amino-acids 58 to 536) (human, UniProt O60684 58-536)",
  "T1 construct": "also called KPNA6; importins-α; not shown: His tag, N-terminal, cleaved",
  "test": "SEC",
  "conditions": "both partners purified",
  "data": [
    {"binder": "B1", "values": [
      {"measurement": "binding result", "result": "binds"}
    ]}
  ]
}
